Data as given in PubChem BioAssay AID1224833 (University of Georgia, 2016).
Screen: 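Host factors restraining rotavirus as candidate antiviral genes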 (primary screen). Cells: monkey MA104 kidney cells. Knock-down reagent: siRNA pool against human genes, 50 nM. Duration: 48 h knock-down before infection; read 24 h after infection. Treatment: infection with rotavirus strain RV3 two days after transfection; infectious dose for this stage not given. Read-out: 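Rotavirus antigen per well by fluorescent immunoassay, normalised to non-targeting control wells on each plate and given as a standard z-score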. Scale: z-score vs non-targeting control: higher = more rotavirus replication than with non-targeting control. Hit rule: In these data the active calls have z-score vs non-targeting control at about -1 or lower, or at about 1 or higher. Calls: active = z-score beyond 1 either way; inactive = z-score within 1 of zero.
Shown is a random part of about 12,000 deposited reagents. In the full data, about 5,600 (46%) got an active call. 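Active calls cover z-scores past 1 in both directions, so they include lowered as well as raised rotavirus replication.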 Reagent sequences are not shown.

| gene | z-score vs non-targeting control | Call |
| --- | --- | --- |
| RAB18 | -0.536 | inactive |
| EHD4 | 0.762 | inactive |
| EIF5B | 0.5 | inactive |
| RHBDL1 | 1.2 | active |
| L3MBTL2 | -0.957 | inactive |
| ELAVL4 | -3.32 | active |
| CRYGC | 0.711 | inactive |
| COPB2 | 1.23 | active |
| SKIC2 | -0.864 | inactive |
| TMEM234 | 0.63 | inactive |
| FAIM2 | -0.563 | inactive |
| FUZ | -0.465 | inactive |
| RAB41 | -2.51 | active |
| ZNF155 | 0.0272 | inactive |
| UAP1 | -0.559 | inactive |
| RGS2 | 0.313 | inactive |
| PTRH1 | 0.655 | inactive |
| LRGUK | 3.3 | active |
| PIGH | -1.78 | active |
| C21orf58 | -1.26 | active |
| GPC1 | -2.11 | active |
| SLC2A11 | -0.6 | inactive |
| BCKDHB | -2.35 | active |
| MUC13 | 0.439 | inactive |
| MSR1 | -1.57 | active |
| COMMD5 | 1.13 | active |
| GATD1 | -1.53 | active |
| ZMYM3 | -0.0062 | inactive |
| SAP130 | -1.04 | active |
| GPX4 | -0.507 | inactive |
| RTCA | 1.81 | active |
| IAPP | -0.51 | inactive |
| CCPG1 | 0.315 | inactive |
| TDRD7 | -0.699 | inactive |
| TENT4B | 1.67 | active |
| DNAJB9 | 1.2 | active |
| NDRG4 | -0.453 | inactive |
| SUN2 | 0.324 | inactive |
| TELO2 | 1.03 | active |
| NAMPT | -1.88 | active |
| EXOC1 | 0.0577 | inactive |
| SPMAP1 | 0.47 | inactive |
| FANCD2OS | -1.63 | active |
| ZNF565 | -0.839 | inactive |
| CSN1S1 | -1.64 | active |
| ATP13A1 | -1.02 | active |
| NINJ2 | -0.483 | inactive |
| EMP3 | -0.826 | inactive |
| CAPN9 | 0.64 | inactive |
| CTAGE4 | 0.64 | inactive |
| KRTAP13-1 | 0.413 | inactive |
| RABL2B | 0.88 | inactive |
| ALG14 | 1.41 | active |
| CKAP5 | -0.215 | inactive |
| SDC2 | -2.28 | active |
| CUZD1 | -1.28 | active |
| RTL3 | 0.171 | inactive |
| RCN3 | 1.15 | active |
| LMLN | 1.12 | active |
| ABCC11 | -2.79 | active |
| EWSR1 | -0.57 | inactive |
| NAPEPLD | -0.807 | inactive |
| PDCD6 | -1.01 | active |
| PDCD1LG2 | -1.48 | active |

An excerpt taken from the entries so far:
| gene | z-score vs non-targeting control | Call |
| --- | --- | --- |
| CSN1S1 | -1.64 | active |
| ATP13A1 | -1.02 | active |
| NINJ2 | -0.483 | inactive |
| EMP3 | -0.826 | inactive |
| CAPN9 | 0.64 | inactive |
| CTAGE4 | 0.64 | inactive |
| KRTAP13-1 | 0.413 | inactive |
| RABL2B | 0.88 | inactive |
| ALG14 | 1.41 | active |
| CKAP5 | -0.215 | inactive |
| SDC2 | -2.28 | active |
| CUZD1 | -1.28 | active |
| RTL3 | 0.171 | inactive |
| RCN3 | 1.15 | active |
| LMLN | 1.12 | active |

Further records follow.
| gene | z-score vs non-targeting control | Call |
| --- | --- | --- |
| STARD7 | -1.5 | active |
| PRDM8 | -1.77 | active |
| VIM | 0.916 | inactive |
| WDR19 | 0.615 | inactive |
| TIGD5 | -1.58 | active |
| SOX21 | 0.655 | inactive |
| SLC46A3 | -2.05 | active |
| ERV3-1 | -0.867 | inactive |
| FAM171B | -0.306 | inactive |
| FSCB | -0.512 | inactive |
| OR8H1 | -1.72 | active |
| WDR77 | 0.896 | inactive |
| TGFBI | -4.79 | active |
| CCDC80 | -0.941 | inactive |
| CEP19 | -1.57 | active |
| AKAP11 | -0.777 | inactive |
| CNPPD1 | -1.24 | active |
| ANXA4 | 0.329 | inactive |
| DNAJB11 | 0.336 | inactive |
| FBLN5 | 0.96 | inactive |
| LMNB2 | -1.41 | active |
| KBTBD2 | -0.711 | inactive |
| TMSB4Y | 0.729 | inactive |
| RBM42 | 1.24 | active |
| GSDMD | -0.225 | inactive |
| FEZF1 | -1.63 | active |
| GAS2L1 | -0.623 | inactive |
| BMPER | -1.08 | active |
| SIPA1L1 | -0.718 | inactive |
| HNRNPF | 0.705 | inactive |
| GHRL | -1.58 | active |
| SYT4 | -1.08 | active |
| TMEM121 | -0.821 | inactive |
| SEC16B | -0.392 | inactive |
| OR51A2 | -1.73 | active |
| IFIT1B | 0.013 | inactive |
| PLEKHG7 | -1.95 | active |
| TENT5C | 1.52 | active |
| MET | 3.14 | active |
| SYT7 | 1.21 | active |
| TEAD2 | -0.073 | inactive |
| CCM2L | -0.527 | inactive |
| KIF3B | -1.41 | active |
| LHX2 | 1.52 | active |
| TEX2 | -0.819 | inactive |
| TALDO1 | -1.5 | active |
| KRT31 | -2.68 | active |
| TBC1D32 | -0.0321 | inactive |
| YBX3 | -0.894 | inactive |
| AACS | 4.41 | active |
| P2RY13 | -0.797 | inactive |
| ZNF181 | -1.57 | active |
| HTR3A | 0.748 | inactive |
| FAM156A | -0.945 | inactive |
| FGF7 | -0.318 | inactive |
| TMEM115 | -0.0502 | inactive |
| KANSL3 | 1.37 | active |
| RBM19 | 0.282 | inactive |
| BTBD6 | -2.01 | active |
| BTBD1 | 0.302 | inactive |
| BPIFB2 | -0.954 | inactive |
| HPS1 | -0.441 | inactive |
| MCM6 | -1.92 | active |
| FAM8A1 | -1.29 | active |
| BUD23 | -2.03 | active |
| AMMECR1 | -2.38 | active |
| LIX1L | 0.647 | inactive |
| NDC1 | -0.8 | inactive |
| C19orf18 | -1.37 | active |
| VBP1 | -1.14 | active |
| HOXC13 | -1.18 | active |
| CELA3B | 2.2 | active |
| USP9Y | -1.24 | active |
| CD109 | -0.477 | inactive |
| JUP | 0.807 | inactive |
| IFTAP | -2.1 | active |
